In US20040235103:
Where a chain is given by its changes, count along the chain named. For at least one entry, the source does not settle the construct or the ends of the probe. Where a protein sequence is shown, tags need not be part of it.

Legend:
Assay in all cases: enzyme reaction in vitro
Conditions in all cases: kobs supercoiled substrate loss, 10 mM Mg acetate, 37 C, purified recombinant protein, protein details: purified from pGRTYB35 construct
[1] = system: T1, Tn5 transposase EK54/LP372/PD242 E54K,P242D,L372P (Transposon Tn5)
T1 sequence (limits assumed): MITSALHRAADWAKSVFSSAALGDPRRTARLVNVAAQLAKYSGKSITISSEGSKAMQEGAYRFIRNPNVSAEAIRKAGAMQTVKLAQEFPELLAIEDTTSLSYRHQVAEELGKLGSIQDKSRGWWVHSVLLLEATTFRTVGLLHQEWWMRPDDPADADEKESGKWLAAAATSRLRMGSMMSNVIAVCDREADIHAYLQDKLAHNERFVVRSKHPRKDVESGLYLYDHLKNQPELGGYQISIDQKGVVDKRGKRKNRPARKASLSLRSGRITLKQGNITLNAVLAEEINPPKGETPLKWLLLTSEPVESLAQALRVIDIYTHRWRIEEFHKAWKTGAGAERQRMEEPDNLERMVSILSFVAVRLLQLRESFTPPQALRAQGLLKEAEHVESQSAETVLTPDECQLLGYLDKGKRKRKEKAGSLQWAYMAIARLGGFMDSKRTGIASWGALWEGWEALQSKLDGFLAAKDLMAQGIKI

[2] = system: T2, Tn5 transposase EK54/LP372/PG242 E54K,P242G,L372P (Transposon Tn5)
T2 sequence (limits assumed): T1 sequence (limits assumed) with D242G

[3] = system: T3, Tn5 transposase EK54/LP372/PF242 E54K,P242F,L372P (Transposon Tn5)
T3 sequence (limits assumed): T1 sequence (limits assumed) with D242F

[4] = system: T4, Tn5 transposase EK54/LP372/PV242 E54K,P242V,L372P (Transposon Tn5)
T4 sequence (limits assumed): T1 sequence (limits assumed) with D242V

[5] = system: T5, Tn5 transposase EK54/LP372/PY242 E54K,P242Y,L372P (Transposon Tn5)
T5 sequence (limits assumed): T1 sequence (limits assumed) with D242Y

[6] = system: T6, Tn5 transposase EK54/LP372/PA242 E54K,P242A,L372P (Transposon Tn5)
T6 sequence (limits assumed): T1 sequence (limits assumed) with D242A

[7] = system: T7, Tn5 transposase EK54/LP372/PI242 E54K,P242I,L372P (Transposon Tn5)
T7 sequence (limits assumed): T1 sequence (limits assumed) with D242I

[8] = system: T8, Tn5 transposase EK54/LP372 E54K,L372P (Transposon Tn5)
T8 sequence (limits assumed): T1 sequence (limits assumed) with D242P

[9] = system: T9, Tn5 transposase EK54/LP372/PL242 E54K,P242L,L372P (Transposon Tn5)
T9 sequence (limits assumed): T1 sequence (limits assumed) with D242L

[10] = SD 0.08, 100 nM Tnp, variant of wild-type OE (pKJ1)
[11] = SD 0.13, 100 nM Tnp, variant of wild-type OE (pKJ1)

Sequence	activity on this sequence ([1]; SD 0.18, 100 nM Tnp, variant of wild-type OE (pKJ1)) [s⁻¹]	activity on this sequence [2, 10] [s⁻¹]	activity on this sequence ([3]; SD 0.12, 100 nM Tnp, variant of wild-type OE (pKJ1)) [s⁻¹]	activity on this sequence [4, 11] [s⁻¹]	activity on this sequence [5, 11] [s⁻¹]	activity on this sequence ([6]; SD 0.09, 100 nM Tnp, variant of wild-type OE (pKJ1)) [s⁻¹]	activity on this sequence ([7]; SD 0.36, 100 nM Tnp, variant of wild-type OE (pKJ1)) [s⁻¹]	activity on this sequence [8, 10] [s⁻¹]	activity on this sequence ([9]; SD 0.19, 100 nM Tnp, variant of wild-type OE (pKJ1)) [s⁻¹]	activity on this sequence ([1]; SD 0.03, 250 nM Tnp) [s⁻¹]	activity on this sequence ([2]; SD 0.10, 250 nM Tnp) [s⁻¹]	activity on this sequence ([3]; SD 0.03, 250 nM Tnp) [s⁻¹]	activity on this sequence ([4]; SD 0.06, 250 nM Tnp) [s⁻¹]	activity on this sequence ([5]; SD 0.04, 250 nM Tnp) [s⁻¹]	activity on this sequence ([6]; SD 0.14, 250 nM Tnp) [s⁻¹]	activity on this sequence ([7]; SD 0.03, 250 nM Tnp) [s⁻¹]	activity on this sequence ([8]; SD 0.03, 250 nM Tnp) [s⁻¹]	activity on this sequence ([9]; SD 0.07, 250 nM Tnp) [s⁻¹]
CTGTCTCTTATACACATCT (double strand) [modified OE (pKJ4)]	2.93	2.22	1.9	2.8	2.48	2.6	3.01	1.45	2.89	–	–	–	–	–	–	–	–	–
CTGACTCTTATACACAAGT (double strand) [wild-type OE (pKJ1)]	–	–	–	–	–	–	–	–	–	0.55	2.5	0.58	1.42	0.6	2.52	0.94	0.79	1.56
